Human monoclonal antibodies against the spike receptor-binding domain (heavy:light variable regions). IC50 against pseudoviruses bearing the spike of naturally observed variants; lower = stronger; >10 µg/ml means not reached at the top dose. No active / inactive call. The stated detection limit is 0.0005 µg/ml; values near or below 0.001 µg/ml lie at the floor of the assay.
How the values were obtained:
Assay in all cases: pseudovirus neutralization IC50; higher = weaker neutralization
[1] = target: SARS-CoV-2 Omicron BA.1 spike pseudovirus
Method: (§1)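 Single-round VSV luciferase pseudovirus mixed with antibody dilutions for 1 h and put on Huh-7 cells for about a day; IC50 from the dose curve.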

[2] = target: SARS-CoV-2 Omicron BA.2 spike pseudovirus
Method: as §1

[3] = target: SARS-CoV-2 Omicron BA.2.75 spike pseudovirus
Method: as §1

[4] = target: SARS-CoV-2 Omicron BA.5 spike pseudovirus
Method: as §1

[5] = target: SARS-CoV-2 Omicron BQ.1.1 spike pseudovirus
Method: as §1

[6] = target: SARS-CoV-2 Omicron XBB spike pseudovirus
Method: as §1

[7] = target: SARS-CoV-2 early D614G spike pseudovirus
Method: as §1

| Binder | pseudovirus neutralization IC50 [1] | pseudovirus neutralization IC50 [2] | pseudovirus neutralization IC50 [3] | pseudovirus neutralization IC50 [4] | pseudovirus neutralization IC50 [5] | pseudovirus neutralization IC50 [6] | pseudovirus neutralization IC50 [7] |
| --- | --- | --- | --- | --- | --- | --- | --- |
| BD55-6512 (protein) chain 1: EVQLVESGGGLVQPGRSLRLSCTASGFTFGDYTLSWFRQAPGKGLEWVGFIRSKTHGGTTEYAASMMGRFTISRDDSKSIAYLEMNSLKTEDTAIYYCTREGILNYYYYYAMDVWGQGTTVTVSS chain 2: DIQMTQSPSSLSASVADRVTITCRASQSISYYLNWYQQKPGKAPKLLIYAASSLQSGVPSRFSGSGSGTDFTLTISNLQPADFATYFCQQSYSIPLTFGGGTKVEIK | > 10 µg/mL | > 10 µg/mL | > 10 µg/mL | > 10 µg/mL | > 10 µg/mL | > 10 µg/mL | > 10 µg/mL |
| BD55-6538 (protein) chain 1: QVQLVQSGAEVKKPGASVKVSCQASGNTFTSYDINWVRQATGQGPEWMGWVNSNSGNTDYAHKFRGRVTMTRDTSIKTVFLELSSLKSEDTAVYYCATARAGYNYGDFENWGQGTLVTVSS chain 2: DIQMTQSPSSLSASVGDRVTFTCRAGQSITWHLNWYQQKPGKAPKLLIYAASSLQSGVPSRFSGSGSGTDFTLTISNLQPEDFATYYCQQSYSTGYTFGQGTKLEIK | > 10 µg/mL | > 10 µg/mL | > 10 µg/mL | > 10 µg/mL | > 10 µg/mL | > 10 µg/mL | > 10 µg/mL |
| BD55-6527 (protein) chain 1: EVQLVESGGGLIQPGGSLTLSCAASGFTVSRNLMGWVRQAPGKGLEWLSVIYSGGTTYFADSVTGRFTISRDNSRNTLSLQMNSLRAEDTAVYYCVGEQGSGRWRGTLFDSWGQGTLVTVSP chain 2: QSVLTQPPSVSGAPGQRVTISCTGSSSNIGAGYDVHWYQQVPGTAPKLLMYGNSNRPSGVPDRFSGSKSGTSASLTITGLQAEDEADYYCQSYDSSLSVLYVFGSGTRVTVL | 0.45 µg/mL | > 10 µg/mL | > 10 µg/mL | > 10 µg/mL | > 10 µg/mL | > 10 µg/mL | 1.74 µg/mL |
| BD55-1268 (protein) chain 1: EVQLLESGGGLVQPGGSLRLSCAASGFTFSTYAMSWVRQPPGEGLEWVSGIGGRGDSTYYADSVKGRFTISRDNSKNTMYLQMNSLRAEDTAVYYCATDGHITMIQPEYFQHWGLGTLVIVSS chain 2: DIQMTQSPSSVSASVGDRVTITCRASQGIGTWLAWYQQKFGKAPKLLIYAASSLQSGVPSRFSGSGSGTDFTLTISSLQPEDFATYYCQQADSFPLTFGGGTKVEI | 0.0217 µg/mL | 0.0256 µg/mL | 0.00815 µg/mL | 1.54 µg/mL | > 10 µg/mL | > 10 µg/mL | 0.00185 µg/mL |
| BD55-6566 (protein) chain 1: QVQLQESGPGLVKPSQTLSLTCTVSGGSITTGGHYWTWIRQHPGKGLEWIGYIDYSGSTYYNPSLQSRLIMSVDTSKNQFSLNLNSVTAADSAVYYCARDIRTVVGFYYMDVWGTGTTVTVSS chain 2: DIQMTQSPSSLSASVGDRVTITCRASQNFTLYLNWYQQRPGMAPKVLIYAASTLQRGVPSRFSGSESGTDFTLTIASLQPEDFATYFCQQTYSTPWTFGQGTKVE | > 10 µg/mL | > 10 µg/mL | > 10 µg/mL | > 10 µg/mL | > 10 µg/mL | > 10 µg/mL | > 10 µg/mL |
| BD-536 (protein) chain 1: QLVESGGGLVKPGGSLRLSCAVSGFTLSGYSINWVRQAPGKGLEWVSFVSGSGSQKFYGDSVKGRFTVSRDNAKSSVYLQMNSLRVEDTAIYYCARDAGKSPLSYWYFDLWGRGTLVTVSS chain 2: QIVLTQSPATLSLSPGERATLSCRASQTIGISLAWYQQKAGQPPRLLIYDAANRATGVPARFSGSGSGTDFTLTISSLQSEDFAVYYCQQRNNWPPKVTFGGGTKVEIK | > 10 µg/mL | > 10 µg/mL | > 10 µg/mL | > 10 µg/mL | > 10 µg/mL | > 10 µg/mL | 2.6 µg/mL |
| BD55-6517 (protein) chain 1: EVQLVESGGGLVQPGGSLRLSCAASGFTFSSSWMNWVRQAPGKGLEWVANINQDGSERNYVASVRGRFNIYSDHAKNSLFLQMDSLRADDTAVYYCARGDTNKWYTEYFRHWGQGTLVTVSS chain 2: SDELTQPSSVSVSPGQTARITCSGNALSRQHGYWYQHKPGQAPVLVIYKDTERPSGIPERFSGSTSGTTATLIITGVQAEDEADYYCQSADSSSTNYVFGTGTKVTVL | > 10 µg/mL | > 10 µg/mL | > 10 µg/mL | > 10 µg/mL | > 10 µg/mL | > 10 µg/mL | > 10 µg/mL |
| BD55-6546 (protein) chain 1: VQLYESGPGLVKPSETLSLTCIVSGGYISSYYWTWIRQPPGKGLEWIGYIEYSGSTIYTPSLKSRVTISVDTSNNQFSLKMTSVTAADTAVYYCARGGGRYLDDPYYYGMDVWGQGTTVTVSS chain 2: QSVLTQPPSVSGTPGQRVTISCSGSTSNIGSNAVNWYQQLPGTAPKLLIHSNNERPSGVTDRFSGSKSGTSASLAISGLQSGDEADYYCAAWDDDLNGREVFGGGTKLTVL | > 10 µg/mL | > 10 µg/mL | > 10 µg/mL | > 10 µg/mL | > 10 µg/mL | > 10 µg/mL | > 10 µg/mL |
| BD55-6572 (protein) chain 1: QVQLQESGPGLVKPSQILSLTCTVSGGSISSGGYYWSWVRQHPGKGLEWIGNIYYTGSTYYKPSLKSRITISVDTSKNQFSLILSSVTAADTAIYYCARGSYYAAGTYYNDYWGQGTLVTVSS chain 2: SSELTQDPAVSVALGQTVRITCQGDTLRTYFASWYQQKPGQAPLLVIYGKNNRPSGIPDRFSGSSSGNTASLTITGAQAEDEADYYCNSRDSTTYHLEVFGGGTKLTVL | > 10 µg/mL | > 10 µg/mL | > 10 µg/mL | > 10 µg/mL | > 10 µg/mL | > 10 µg/mL | > 10 µg/mL |
| BD55-6554 (protein) chain 1: QVQLVQSGAEVKRPGASLTVSCKASGYSFANYGVNWVRQVPGQGLEWVGWISGYNGNTVYAQRLQDRVSMTTDTSTSTVYMKLKSLTSDDTAVYFCARDANYDSNGHFFRGGPFNWLDPWGQGTLVTVSS chain 2: QSVLTQPPSASGTPGQRVTISCSGGHSNIGSNYVYWYQQFPGTAPKLLIYKNSQRPSGVPDRFSGSKSGTSASLAISGLRSEDEAEYYCAAWDDSPSGPWVFGGGTKLTVL | > 10 µg/mL | > 10 µg/mL | > 10 µg/mL | > 10 µg/mL | > 10 µg/mL | > 10 µg/mL | > 10 µg/mL |
| BD55-6529 (protein) chain 1: VQLVQSGAEVKKPGASVKVSCRASGYTFDTFDINWVRQATGQGPEWMGWMNPKSGDTGFAPNFQGRVTMTRDSSINTAYMELSSLRSGDTAVYYCAIGLFYDGGGFNRYHYYTMDVWGQGTTVTVSS chain 2: IHMTQSPSSLSASVGGRITITCRASQSISTSLNWYQQQPGKPPKLLIFGSSTLATGVPPRFSGSGSGTDFTLTIISLQPEDFATYYCQQSYSFPGTFGPGTKVDI | > 10 µg/mL | > 10 µg/mL | > 10 µg/mL | > 10 µg/mL | > 10 µg/mL | > 10 µg/mL | 8.87 µg/mL |
| BD55-6559 (protein) chain 1: QLQLQESGPGLLKPSETLSLTCSVSGGSVSSGLYYWGWLRQPPGKGLDWIGTLDYTGATYYNPSLKSRLTISVDASNNQFSLRLMSVTATDTAVYYCARPRLISGYSGDWQGPTYHFDSWGQGTLVTV chain 2: SDVLTQPPSVSVAPGETAWMTCGGNNVGGKSIHWYQQRPGQAPVLVVFDDSGRPSGIPERFSGSHSGNTATLTVSRVEAGDEADYYCQMWDSGTDLAVFGGGTKLTVL | > 10 µg/mL | > 10 µg/mL | > 10 µg/mL | > 10 µg/mL | > 10 µg/mL | > 10 µg/mL | 8.74 µg/mL |

Source: the supplement of paper PMC9931576
